Results as given in patent EP0855181A2 (priority 1997, dated 1998).

Tested on: superantigen primed neutrophils
Experiment: Leukotriene and 12-HETE release of superantigen primed neutrophils
Conditions: glycine, then fMLP
[1] = SEB-T-cell receptor mutant priming

For NCC(=O)O [glycine], the “leukotriene and 12-HETE pattern compared with SEA” value (SEA-T-cell receptor mutant priming) was “marginally shifts this image”, the 20-carboxy-LTB4 (SEB-MHC-mutant priming) was “drop” and the 12-HETE [1] was “marginal increase”. The 20-carboxy-LTB4 [1] was “significant drop”, the “increase in 12-HETE” value (TSST-1-mutant P135 priming) was “marginal” and the “increase in cysteinyl leukotrienes” value (TSST-1-mutant P135 priming) was “marginal”.
